PMC5234717 (Journal of Lipid Research, 2016)

System: CCCCCCCCCCCCC/C=C/[C@@H](O)[C@@H](N)COP(=O)(O)O
Experiment: purified protein
Details: pH 7.5

“S1PL2021 (Burkholderia pseudomallei K96243)” gave a Km of 48.2 ± 9.4 µM, a Vmax of 0.0175 µmol/min/mg and a kcat/Km of 320 M⁻¹ s⁻¹.
